Measurements reported in PubChem BioAssay AID624099 (ICCB-Longwood, 2012)
Here is an unselected part of about 21,000 reagents tested. 497 of all reagents (2.4%) were called active. 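Higher z means weaker E2 silencing; only reporter increases were scored, and knock-downs that hurt cell survival may mask genuine repressor factors.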 Entries without a mark were called inactive. The numbers tell different reagents against one gene apart.

- Purpose: 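Human genes that papillomavirus E2 requires to repress the HPV18 LCR promoter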 (primary screen)
- Cell system: human C33A cervical carcinoma cells (HPV-negative) stably expressing BPV1 E2 and an HPV18 LCR luciferase reporter
- Knock-down reagent: siRNA pool against human genes, 40 nM
- Timing: 72 h
- Read-out: 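Per-well luciferase luminescence, z-scored on each plate against the plate mean and SD with control wells left out, then averaged across three replicate plates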
- Scale: mean z-score and z-score: higher = stronger reporter signal, weaker E2 silencing
- Active means: 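Mean z ≥ 2 together with z ≥ 2 in two or more of the three replicates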

gene symbol | pool no. | mean z-score | z-score, replicate A | z-score, replicate B | z-score, replicate C
GYPB (GeneID 2994) | 1 | 0.19 | -0.18 | 0.27 | 0.48
HNRNPA1P7 (GeneID 388275) | 1 | 1.81 | 1.85 | 1.64 | 1.93
RBM10 (GeneID 8241) | 1 | -1.27 | -1.03 | -1.41 | -1.37
PLVAP (GeneID 83483) | 1 | -0.24 | -0.28 | -0.11 | -0.34
RNPEPL1 (GeneID 57140) | 1 | -1.05 | -1.05 | -0.94 | -1.17
PKNOX2 (GeneID 63876) | 1 | 1.24 | 1.16 | 1.31 | 1.26
ALS2CL (GeneID 259173) | 1 | -0.22 | -0.05 | -0.34 | -0.27
LOC399789 (retired record) (GeneID 399789) | 1 | -0.16 | 0.38 | -0.54 | -0.32
OR4K15 (GeneID 81127) | 1 | -1.25 | -1.37 | -1.54 | -0.86
CAMKK1 (GeneID 84254) | 1 | -0.64 | -0.55 | -0.86 | -0.5
IGFN1 (GeneID 91156) | 1 | 0.65 | 0.88 | 0.17 | 0.88
CDHR5 (GeneID 53841) | 1 | 0.25 | 0.39 | 0.37 | -0.01
E2F3 (GeneID 1871) | 1 | 0.72 | 0.59 | 0.58 | 0.99
IP6K2 (GeneID 51447) | 1 | 0.54 | 0.33 | 0.58 | 0.7
KRT23 (GeneID 25984) | 1 | -0.41 | -0.62 | -0.24 | -0.37
RAB26 (GeneID 25837) | 1 | -0.12 | -0.1 | -0.13 | -0.15
TAOK2 (GeneID 9344) | 1 | 0.81 | 0.61 | 0.82 | 1.01
ANKRD27 (GeneID 84079) | 1 | 0.03 | -0.01 | 0.17 | -0.06
IL36B (GeneID 27177) | 1 | -0.53 | -0.53 | -0.42 | -0.65
ZFAND4 (GeneID 93550) | 1 | -0.61 | -0.42 | -0.59 | -0.82
ADIPOR2 (GeneID 79602) | 1 | -0.6 | -0.84 | -0.35 | -0.61
LINC02843 (GeneID 286238) | 1 | -0.2 | -0.38 | -0.38 | 0.16
BIRC3 (GeneID 330) | 1 | 0.62 | 0.56 | 0.64 | 0.64
CABP4 (GeneID 57010) | 1 | 0.2 | 0.97 | -0.29 | -0.09
SLC12A9 (GeneID 56996) | 1 | 0.44 | 0.56 | 0.46 | 0.3
LOC392222 (retired record) (GeneID 392222) | 1 | 0.21 | 0.12 | 0.44 | 0.09
LOC388927 (retired record) (GeneID 388927) | 1 | 0.58 | 1.11 | 0.19 | 0.44
TWF2 (GeneID 11344) | 1 | 0.32 | 0.36 | 0.23 | 0.37
RXRA (GeneID 6256) | 1 | 0.5 | 0.61 | 0.38 | 0.52
CD300LG (GeneID 146894) | 1 | 0.57 | 0.46 | 1.25 | -0.01
RGS9 (GeneID 8787) | 1 | 0.15 | 0.4 | -0.27 | 0.33
OGN (GeneID 4969) | 1 | -0.73 | -0.86 | -0.62 | -0.72
PLSCR5 (GeneID 389158) | 1 | 0 | 0.23 | -0.1 | -0.14
SEC61G (GeneID 23480) | 1 | -0.89 | -1.3 | -0.89 | -0.49
CAPN10 (GeneID 11132) | 1 | 0.19 | -0.12 | 0.04 | 0.65
UBE2W (GeneID 55284) | 1 | 0.42 | 0.31 | 0.45 | 0.5
SWAP70 (GeneID 23075) | 1 | 0.09 | 0.01 | 0.24 | 0.03
ZSWIM2 (GeneID 151112) | 1 | 0.35 | 0.74 | 0.13 | 0.17
GATAD2A (GeneID 54815) | 1 | -1.14 | -1.13 | -1.16 | -1.12
MLLT1 (GeneID 4298) | 1 | 0.56 | 0.43 | 0.56 | 0.69
MLLT1 (GeneID 4298) | 2 | 2.14 (active) | 1.57 | 2.53 | 2.33
PTPN11 (GeneID 5781) | 1 | -0.06 | -0.25 | -0.06 | 0.13
LINC01281 (GeneID 286442) | 1 | 0.77 | 0.52 | 0.73 | 1.05
LOC155081 (retired record) (GeneID 155081) | 1 | -1.03 | -0.88 | -1.16 | -1.04
AIPL1 (GeneID 23746) | 1 | -1.11 | -1.16 | -1.06 | -1.12
KRTAP23-1 (GeneID 337963) | 1 | -0.11 | -0.04 | 0.07 | -0.37
PPP1R3C (GeneID 5507) | 1 | -0.74 | -0.66 | -0.93 | -0.62
LOC390734 (retired record) (GeneID 390734) | 1 | -0.06 | -0.19 | -0.14 | 0.15
PTGDS (GeneID 5730) | 1 | 0.24 | 0.17 | 0.17 | 0.38
GHRL (GeneID 51738) | 1 | 1.54 | 1.54 | 1.63 | 1.45
ENGASE (GeneID 64772) | 1 | -0.57 | -0.49 | -0.79 | -0.42
CD79A (GeneID 973) | 1 | 0.11 | 0.27 | -0.08 | 0.15
DDX39B (GeneID 7919) | 1 | -1.06 | -0.74 | -1.26 | -1.17
LOC387910 (retired record) (GeneID 387910) | 1 | -0.27 | -0.55 | -0.08 | -0.17
POLE (GeneID 5426) | 1 | -0.79 | -0.8 | -0.83 | -0.73
YY1 (GeneID 7528) | 1 | -1.15 | -0.96 | -0.85 | -1.63
PRAMEF18 (GeneID 391003) | 1 | -1.43 | -2.07 | -1.19 | -1.03

Copied from the list:
LINC02843 (GeneID 286238), mean z-score → -0.2
Result for ENGASE (GeneID 64772) under “z-score, replicate C”: -0.42
UBE2W (GeneID 55284), z-score, replicate B: 0.45
CABP4 (GeneID 57010), z-score, replicate B: -0.29
For “z-score, replicate C”, RXRA (GeneID 6256) is entered as 0.52
Value of LOC388927 (retired record) (GeneID 388927) under “z-score, replicate A”: 1.11
